A mixed list of measured activities; the numbers were collected in NIAID ChemDB.

All rows: cytotoxicity tests; cell line: HFF; method: visual reading; endpoint: CC50

CCn is the concentration with n% toxicity to the cells. Rows are shuffled and stem from different studies.

{"SMILES": "[N-]=[N+]=Nc1nc2cc(Cl)c(Cl)cc2n1[C@H]1C[C@H](O)[C@@H](CO)O1", "result": "100 µM"}
{"SMILES": "OCC(CO)OCn1cnc2c(Cl)c(Cl)ccc21", "result": ">100 µM"}
{"SMILES": "CSc1nc2sncc2n1[C@H]1C[C@H](O)[C@@H](CO)O1", "result": "15 µM"}
{"SMILES": "OCC(CO)OCn1c(SCc2ccccc2)nc2cc(Cl)c(Cl)cc21", "result": ">100 µM"}
{"SMILES": "OCCSCc1c(Cl)nc2cc(Cl)c(Cl)cn12", "result": ">100 µM"}
{"SMILES": "CSc1nc2snc(C)c2[nH]1", "result": "26 µM"}
{"SMILES": "Clc1cc2nc(Cl)c(COCc3ccccc3)n2cc1Cl", "result": "100 µM"}
{"SMILES": "Cc1cc2nc(Cl)n([C@H]3C[C@H](O)[C@@H](CO)O3)c2cc1C", "result": ">100 µM"}
{"SMILES": "OCC(CO)OCn1c(Br)nc2c(Cl)c(Cl)ccc21", "result": ">100 µM"}
{"SMILES": "CC(C)Nc1nc2cc(Cl)c(Cl)cc2n1[C@H]1C[C@H](O)[C@@H](CO)O1", "result": ">100 µM"}
{"SMILES": "OC[C@H]1O[C@@H](n2c(SCc3ccccc3)nc3sncc32)[C@@H](O)[C@@H]1O", "result": "2.1 µM"}
{"SMILES": "Cn1ncc2c3cc(Cl)c(Cl)cc3n([C@@H]3O[C@H](CO)[C@@H](O)[C@H]3O)c21", "result": "10 µM"}
{"SMILES": "C=CCOCc1c(Cl)nc2ccc(Cl)cn12", "result": "100 µM"}
{"SMILES": "CNc1nc2c(Cl)cc(Cl)cc2n1COCCO", "result": ">100 µM"}
{"SMILES": "CSc1nc2sncc2[nH]1", "result": "32 µM"}
{"SMILES": "CN(C)c1nc2c(Cl)c(Cl)ccc2n1COC(CO)CO", "result": ">100 µM"}
{"SMILES": "OC[C@H]1O[C@@H](n2cnc3cc(Cl)c(Cl)cc32)C[C@@H]1O", "result": ">100 µM"}
{"SMILES": "OCC(CO)OCn1c(=S)[nH]c2cc(Cl)c(Cl)cc21", "result": ">100 µM"}
{"SMILES": "OCCCOCc1c(Cl)nc2cc(Cl)c(Cl)cn12", "result": "100 µM"}

A second listing of 3 rows from above:

| SMILES | result |
|---|---|
| Cn1ncc2c3cc(Cl)c(Cl)cc3n([C@@H]3O[C@H](CO)[C@@H](O)[C@H]3O)c21 | 10 µM |
| CNc1nc2c(Cl)cc(Cl)cc2n1COCCO | >100 µM |
| CSc1nc2sncc2[nH]1 | 32 µM |